Drawing on PubChem BioAssay AID485364 (National Center for Advancing Translational Sciences (NCATS), 2010), this text covers Potency for 82 molecules.

This is a selection; strong and weak results do not stand in their true shares. Some structures show a salt or complex split into parts, the way the source records it. Activity calls are given as the source filed them. Calls come from the whole dose curve; as a rule, active = well fitted inhibition curve with a large enough effect; inconclusive = small, poorly fitted or top-dose-only effect; inactive = no such curve, though single readings can be large or run the other way. Where a call stands in place of a potency, no number is given.
Potency is the fitted concentration of half-maximal effect.

The target in the assay is Schistosoma mansoni thioredoxin glutathione reductase (TGR) (UniProt Q962Y6). Briefly: qHTS Assay for the Inhibitors of Schistosoma Mansoni Peroxiredoxins. Note: nearly all actives have a fitted effect of over 60% in size. As to conditions: purified TGR, DTNB reduction, TNB absorbance 405 nm; series mostly up to 114 µM. An excerpt: Schistosomiasis is a major neglected tropical disease that currently affects over 200 million. It is caused by different species of flatworms, such as Schistosoma mansoni. Over the last century, drugs to treat the disease have evolved from potassium antimonyl tartrate, artemisinin, oxamniquine, to praziquantel, with praziquantel remaining the universally-used single drug of choice over the past three decades. However, transmission rates have changed little with praziquantel, and there is evidence for the development of drug resistant parasites. Because there is currently no suitable alternative therapy available, there is an urgent need to identify new targets and drugs for schistosomiasis treatment. Thioredoxin glutathione reductase (TGR), one uniquely positioned S. mansoni enzyme, has been identified as a major component of the worms' distinct and compressed antioxidant "firewall". TGR is a multifunctional enzyme that catalyzes the interconversion between reduced and oxidized forms of both glutathione (GSH) and thioredoxins, thus making it an attractive new antiparasitic target. Recently, a quantitative high-throughput screen of the NIH Molecular Libraries Small Molecule Repository (MLSMR, ~71K at the time of the screen in 2007) was performed using an assay that targeted both TGR and peroxiredoxin2 (Prx2, an H2O2-reducing enzymatic component of the S. mansoni redox "firewall") by following the decrease of NADPH fluorescence. […] Additional mechanistic link between exogenous NO donation and parasitic injury for the oxadiazole-2-oxide class of compounds was also expanded and better defined. Although the screen addressed both TGR and Prx2, the assay required post-screen target deconvolution for further characterization of the actives. In addition, the fluorescence assay was also subject to fluorescence interference from compound library members. We have developed a 1536-well-based kinetic HTS assay to address TGR alone. The assay followed the reduction of 5, 5'-dithiobis (2-nitrobenzoic acid) (DTNB) (Ellman's reagent) by NADPH and measured the increase in absorbance at 412 nm of the reaction product, TNB. […] This assay format can be used to screen the current MLSMR collection (with >300K compounds available) to find novel TGR inhibitors. Furoxan is a good choice to serve as a positive control in the primary HTS assay.
Three microliters of reagents (100 uM NADPH and 20 nM TGR or 100 uM NADPH as no-enzyme control) were dispensed into 1,536-well black clear-bottomed plates. Compounds (23 nL) were transferred via Kalypsys pin tool equipped with 1536-pin array (10 nL slotted pins, V&P Scientific, San Diego, CA). The plates were then be incubated for 15 min at room temperature, and 1 uL aliquot of 500 uM NADPH were added, immediately followed by a 1 uL aliquot of 15 mM DTNB to start the reaction. The plate was transferred to a ViewLux high-throughput CCD imager (Perkin-Elmer, Wellesley, MA) where kinetic measurements of the TNB absorbance were acquired using a 405 excitation filter. Throughout the screen, reagent bottles and all liquid lines were made light-tight to minimize reagent degradation. All screening operations were performed on a fully integrated robotic system (Kalypsys, San Diego, CA) containing one RX-130 and two RX-90 anthropomorphic robotic arms (Staubli, Duncan, SC). Library plates were screened starting from the lowest and proceeding to the highest concentration, and a "double-dipping" step of the highest concentration was required to access higher concentrations of compounds. Vehicle-only plates, with DMSO being pin-transferred to the entire column 5-48 compound area, were inserted uniformly at the beginning and the end of each library in order to monitor for and record any shifts in the background, which can be affected by reagent dispensers or loss in enzyme activity overtime. […]
On the technique in general: Quantitative high-throughput screening tests each substance at several concentrations.
For the molecule `O=C(NCC1(N2CCCCC2)CCCCC1)c1cncc(Br)c1`, the Potency entry was “inactive”.

As for `COc1ccc2c(c1O)-c1c(O)c(OC)cc3c1[C@H](C2)[N+](C)(C)CC3.O=[N+]([O-])c1cc([N+](=O)[O-])c([O-])c([N+](=O)[O-])c1[O-]`, the Potency result was “inactive”.

Take `CCCOc1ccc(C(=O)NCC2(N(C)C)CCCCC2)cc1OC`: the Potency result was “inactive”.

On to `O=C(NCC1(N2CCOCC2)CCCCC1)c1ccccc1Br`, for which the Potency entry is “inactive”.

Turning to `CCCCOc1ccccc1C(=O)NCC1(N2CCOCC2)CCCCC1`, the Potency entry is “inactive”.

For `CN(C)c1cccc(C(=O)NCC2(N3CCCCC3)CCCCC2)c1`, the Potency entry is “inactive”.

For the molecule `O=[N+]([O-])c1cc([N+](=O)[O-])c(OC2CCCCC2O)c([N+](=O)[O-])c1` (configuration not stated), the Potency result was “inactive”.

As to `COc1ccc(CN(CCCl)CCCl)cc1Cl`, the Potency entry was “inactive”.

With `CC(C)c1ccc(NC2CCN(C(=O)OC(C)(C)C)CC2)cc1`, the Potency result was “inactive”.

With `COc1cc(OC)c(C(=O)NCC2(N(C)C)CCCCC2)cc1OC`, the Potency entry is “inactive”.

As to `O=C(NCC1(N2CCCCC2)CCCCC1)c1cccc(C(F)(F)F)c1`, the Potency entry is “inactive”.

Consider `CCCOc1cccc(C(=O)NCC2(N3CCOCC3)CCCCC2)c1`, for which the Potency entry is “inactive”.

On to `O=[N+]([O-])c1cc([N+](=O)[O-])c(NCC2CCS(=O)(=O)C2)c([N+](=O)[O-])c1` (configuration not stated), for which the Potency result was “inactive”.

Regarding `COc1ccc(NC2CCN(C(=O)OC(C)(C)C)CC2)cc1`, the Potency result was “inactive”.

`CC(C)c1ccc(C(=O)NCC2(N3CCOCC3)CCCCC2)cc1`: the Potency entry is “inactive”.

`CN1CCN(CCOC(=O)C(O)(c2ccccc2)c2ccccc2)CC1`: the Potency result is “inactive”.

For `O=C(NCC1(N2CCOCC2)CCCCC1)c1cc(=O)[nH]c2ccccc12`, the Potency entry is “inactive”.

As for `COc1cc(C(=O)NCC2(N3CCCCC3)CCCCC2)ccc1OC(F)F`, the Potency result is “inactive”.

With `O=C(NCC1(N2CCCCC2)CCCCC1)c1ccc(OC(F)F)cc1`, the Potency entry was “inactive”.

For `O=C(NCC1(N2CCCCC2)CCCCC1)c1cccc([N+](=O)[O-])c1`, the Potency entry was “inactive”.

Take `CCOc1ccc(C(=O)NCC2(N3CCOCC3)CCCCC2)cc1`: the Potency result was “inactive”.

Regarding `CSc1ccc(C(=O)NCC2(N3CCOCC3)CCCCC2)cc1`, the Potency result is “inactive”.

In the case of `N#CC1(Nc2ccccc2)CCN(CCc2ccccc2)CC1`, the Potency entry is “inactive”.

Take `CCN1CCC(Nc2ccc(Cl)cc2)CC1`: the Potency entry was “inactive”.

Take `Cc1ccc(OCC(C)C)c(CN(CCCl)CCCl)c1`: the Potency was active: 10 µM.

As to `COc1cc(C(=O)NCC2(N(C)C)CCCCC2)ccc1OC(F)F`, the Potency result is “inactive”.

As for `CCOC(=O)N1CCC(Nc2cccc(C)c2)CC1`, the Potency result was “inactive”.

Take `CCOc1ccc(C)cc1CN(CCCl)CCCl`: the Potency is active: 7.94 µM.

As to `O=C(NCC1(N2CCOCC2)CCCCC1)c1ccc(Cl)cc1`, the Potency result was “inactive”.

Turning to `CCOC(=O)N1CCC(Nc2ccc(F)cc2)CC1`, the Potency entry was “inactive”.

On to `COc1ccc(NC2CCN(CCc3ccccc3)CC2)c(OC)c1`, for which the Potency entry was “inactive”.

Take `O=C(NCC1(N2CCCCC2)CCCCC1)c1ccc(F)cc1`: the Potency entry was “inactive”.

Take `CCCCOc1ccc(C(=O)NCC2(N3CCOCC3)CCCCC2)cc1`: the Potency entry was “inactive”.

Take `COc1ccccc1C(=O)NCC1(N2CCOCC2)CCCCC1`: the Potency result is “inactive”.

Take `O=C(NCC1(N2CCOCC2)CCCCC1)c1cc2ccccc2o1`: the Potency entry is “inactive”.

With `Cc1cc(C)cc(N(C(=O)c2ccccc2)C2CCN(C(=O)OC(C)(C)C)CC2)c1`, the Potency result is “inactive”.

As for `O=C(NCC1(N2CCCCC2)CCCCC1)c1ccc(Cl)nc1`, the Potency result is “inactive”.

Take `CCOC(=O)N1CCC(Nc2ccc(OC)cc2)CC1`: the Potency result was “inactive”.

Regarding `COc1ccc(Cl)cc1C(=O)NCC1(N2CCOCC2)CCCCC1`, the Potency result is “inactive”.

As for `O=C(OC1CN2CCC1CC2)C1c2ccccc2Oc2ccccc21` (configuration not stated), the Potency entry is “inactive”.

As to `O=C(NCC1(N2CCCCC2)CCCCC1)c1ccc(Cl)s1`, the Potency result is “inactive”.

Turning to `N#CC1(Nc2ccccc2)CCN(Cc2ccccc2)CC1`, the Potency result is “inactive”.

As to `O=C(NCC1(N2CCCCC2)CCCCC1)c1cccs1`, the Potency result is “inactive”.

For the molecule `O=C(NCC1(N2CCCCC2)CCCCC1)c1ccc(=O)[nH]c1`, the Potency result is “inactive”.

As to `COc1ccc(C(=O)NCC2(N3CCCCC3)CCCCC2)c(OC)c1OC`, the Potency entry was “inactive”.

Consider `CC(C)(C)OC(=O)N1CCC(N(C(=O)c2ccccc2)c2ccc(F)cc2)CC1`, for which the Potency result was “inactive”.

As to `CSc1ccccc1C(=O)NCC1(N2CCCCC2)CCCCC1`, the Potency result was “inactive”.

As to `CCC(CO)(C(=O)OC1CN2CCC1CC2)c1ccccc1` (configuration not stated), the Potency entry is “inactive”.

Regarding `COc1cccc(C(=O)N(c2cc(C)cc(C)c2)C2CCN(C(=O)OC(C)(C)C)CC2)c1`, the Potency result was “inactive”.

For `COc1cc(C(=O)NCC2(N3CCOCC3)CCCCC2)cc(OC)c1OC`, the Potency result was “inactive”.

As for `COc1cc(OC)cc(C(=O)NCC2(N3CCOCC3)CCCCC2)c1`, the Potency entry is “inactive”.

On to `CCCOc1ccc(C)cc1CN(CCCl)CCCl`, for which the Potency was active: 14.1 µM.

With `CN1CCC(Nc2ccc(Cl)cc2)CC1`, the Potency result was “inactive”.

Turning to `CN1CCC(Nc2ccc(F)c(Cl)c2)CC1`, the Potency result was “inactive”.

With `CCOc1ncccc1C(=O)NCC1(N2CCOCC2)CCCCC1`, the Potency result was “inactive”.

Regarding `CCCOc1ccc(C(=O)NCC2(N(C)C)CCCCC2)cc1`, the Potency entry was “inactive”.

As to `O=C(O)C1(Nc2ccccc2)CCN(Cc2ccccc2)CC1`, the Potency result is “inactive”.

For `CC(C)(C)OC(=O)N1CCC(Nc2ccccc2)CC1`, the Potency entry is “inactive”.

As for `CCN1CCC(Nc2cccc(F)c2)CC1`, the Potency entry is “inactive”.

Regarding `CN(C)c1ccc(C(=O)NCC2(N3CCCCC3)CCCCC2)cc1`, the Potency result is “inactive”.

Consider `CC(C)(C)c1ccc(C(=O)NCC2(N3CCOCC3)CCCCC2)cc1`, for which the Potency result was “inactive”.

For `O=C(NCC1(N2CCCCC2)CCCCC1)c1ccco1`, the Potency entry was “inactive”.

As to `Cc1ccccc1C(=O)NCC1(N(C)C)CCCCC1`, the Potency result was “inactive”.

As for `COc1cc(OC)cc(C(=O)NCC2(N3CCCCC3)CCCCC2)c1`, the Potency entry is “inactive”.

Consider `CN(C)C1(CNC(=O)c2ccc(C(C)(C)C)cc2)CCCCC1`, for which the Potency entry is “inactive”.

`Fc1ccccc1NC1CCN(Cc2ccccc2)CC1`: the Potency result was “inactive”.

On to `Cc1ccc(C(=O)NCC2(N3CCCCC3)CCCCC2)o1`, for which the Potency result is “inactive”.

As to `CCCN1CCC(Nc2cc(OC)cc(OC)c2)CC1`, the Potency result was “inactive”.

For the molecule `O=C(NCC1(N2CCOCC2)CCCCC1)c1ccccc1`, the Potency result was “inactive”.

For the molecule `c1ccc(CN2CCC(Nc3ccccc3)CC2)cc1`, the Potency entry is “inactive”.

With `CN(C)C1(CNC(=O)c2cccc(C#N)c2)CCCCC1`, the Potency result is “inactive”.

For the molecule `CC(C)(C)OC(=O)N1CCC(N(C(=O)c2ccccc2)c2ccc(Cl)cc2)CC1`, the Potency entry is “inactive”.

As to `O=C(NCC1(N2CCOCC2)CCCCC1)c1ccc([N+](=O)[O-])cc1`, the Potency entry is “inactive”.

With `O=C(NCC1(N2CCOCC2)CCCCC1)c1ccccc1[N+](=O)[O-]`, the Potency result is “inactive”.

Turning to `N#Cc1ccc(C(=O)NCC2(N3CCCCC3)CCCCC2)cc1`, the Potency result is “inactive”.

In the case of `CCOC(=O)C(CC)C1=NC(C)(C)Cc2ccccc21.O=[N+]([O-])c1cc([N+](=O)[O-])c(O)c([N+](=O)[O-])c1` (configuration not stated), the Potency result was “inactive”.

For `N/C(=N\O)c1c(N)no[n+]1[O-]`, the Potency entry was “inactive”.

`CCOC(=O)N1CCC(Nc2ccc(C)cc2)CC1`: the Potency result is “inactive”.

On to `O=C(O)c1cccc(Nc2c([N+](=O)[O-])cc([N+](=O)[O-])cc2[N+](=O)[O-])c1`, for which the Potency result is “inactive”.

For `O=C(OC1CN2CCC1CC2)C1c2ccccc2C=Cc2ccccc21` (configuration not stated), the Potency entry was “inactive”.

As to `CCc1cc(C(=O)NCC2(N3CCCCC3)CCCCC2)sc1C`, the Potency entry was “inactive”.

Turning to `O=C(NCC1(N2CCOCC2)CCCCC1)c1cc(Br)ccc1Cl`, the Potency entry was “inactive”.
